Data as given in PubChem BioAssay AID504761 (Drosophila RNAi Screening Center, 2011).

Purpose: 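Fly genes whose silencing reduces dengue virus type 2 infection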 (primary screen)
Cells: D.Mel-2 cells from Drosophila
Knock-down reagent: long dsRNA against Drosophila genes
Challenge: infection with dengue virus type 2; dose and infection time not stated
Read-out: 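Cells stained for dengue envelope protein and imaged; percent of infected cells per well on duplicate plates, ranked by infection, with stained nuclei counted for cell number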
Reading the numbers: infection score: higher = more virus-infected cells; cell count: higher = more cells in the well
Call rule: 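Low infection ranks in the two replicates (chance level up to 0.065) followed by a retest with a 1.5-fold or larger significant decrease, p below 0.05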
Calls: active = confirmed: knock-down lowers infection; inactive = not picked or not confirmed
The deposit covers about 22,000 reagents; below is an unselected part of those with a known target gene and a result. Of all reagents, 116 (0.52%) are marked active. 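Calls depend on retest data that are not deposited; infection was ranked per plate without normalising between plates; the unit of the infection score is not given.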 Raw values are not corrected between plates. Not all columns of the deposit are shown. Not given: the amount of reagent, the time to read-out.

CG16956 [DRSC02544] — infection score, replicate 1: 4.63; cell count, replicate 1: 6524; activity call: inactive
sw (short wing) [DRSC20388] — infection score, replicate 1: 2.82; cell count, replicate 1: 5598; activity call: inactive
Tsp33B (Tetraspanin 33B) [DRSC02418] — infection score, replicate 1: 3.57; cell count, replicate 1: 6609; activity call: inactive
Tsp33B (Tetraspanin 33B) [DRSC28982] — infection score, replicate 1: 13.8; cell count, replicate 1: 4119; activity call: inactive
CG1965 [DRSC12577] — infection score, replicate 1: 5.87; cell count, replicate 1: 7121; activity call: inactive
CG1965 [DRSC21828] — infection score, replicate 1: 9.74; cell count, replicate 1: 2280; activity call: inactive
kra (krasavietz) [DRSC12320] — infection score, replicate 1: 7.93; cell count, replicate 1: 6264; activity call: inactive
CG42748 [DRSC03712] — infection score, replicate 1: 7.67; cell count, replicate 1: 6507; activity call: inactive
CG42748 [DRSC03713] — infection score, replicate 1: 11.2; cell count, replicate 1: 6480; activity call: inactive
CG42748 [DRSC03734] — infection score, replicate 1: 20.2; cell count, replicate 1: 5916; activity call: inactive
CG42748 [DRSC28935] — infection score, replicate 1: 11.9; cell count, replicate 1: 4497; activity call: inactive
Mef2 (Myocyte enhancer factor 2) [DRSC07468] — infection score, replicate 1: 11.2; cell count, replicate 1: 5486; activity call: inactive
Mef2 (Myocyte enhancer factor 2) [DRSC25554] — infection score, replicate 1: 1.16; cell count, replicate 1: 6112; activity call: inactive
